# Patent US20260315452A1, “PROTEASE INHIBITORS AND USES THEREOF” (priority 2023, published 2026)
# Structures were worked out from names or drawings and are uncertain.
# Target: SARS-CoV-2 3CLpro (Severe acute respiratory syndrome coronavirus 2, UniProt P0DTD1)
# Experiment: In vitro FRET-based enzymatic assay, inhibition of SARS-CoV-2 3CLpro
# Assay type: biochemical
# Conditions: read-out: Inhibitory Activity (IC50), 15 nM 3CLpro, 25 μM fluorogenic substrate, 37° C.
smiles,measurement,value
CNC(=O)c1cc(Cl)cc([N+](=O)[O-])c1N[C@H]1CN(C(=O)c2cncc3c2ccn3C)CCC1(F)F,IC50,< 100 nM
